Biological target: plasmepsin II from Plasmodium falciparum (Plm II) (Plasmodium falciparum, UniProt P46925)
Test: Plasmepsin II inhibition assay, hydrolysis of chromogenic substrate
Assay type: biochemical
Details: read-out: Ki Plm II; 25° C., 10 mM sodium formate, 2% DMSO, pH 4.0; fit to competitive inhibition
Method: FIG. 7A-C. Inhibition of Plasmepsin II from Plasmodium falciparum by KNI-10033, KNI-10030 and KNI-10006 at 20° C. in 10 mM sodium citrate, 100 mM NaCl, 2% DMSO, pH 4.0. The inhibition constants are 3 nM, 11 nM and 0.5 rLM respectively.
The specific activity of plasmepsin II from Plasmodium falciparum (Plm II) cloned in and purified from Escherchia coli and commercially available human Cathepsin D were measured by following the hydrolysis of the chromogenic substrate Ala-Leu-Glu-Arg-Thr-nPhe-Phe-Ser-Phe-Pro-Thr-OH (California Peptide Research Inc., Napa, Calif.). The decrease in absorbance upon hydrolysis is monitored at 300 nm. Typical Plasmepsin II preparations hydrolyze chromogenic substrate at 4-5 s^−1 at 37° C. The inhibition assays were performed at 25° C. in 10 mM sodium formate, 2% DMSO, pH 4.0. These pH conditions mimic the conditions in the food vacuole of the parasite. Under the conditions of the assays the Km for plasmepsin II is 20 μM and for human Cathepsin D is 130 μM. Inhibition constants (Ki) for the inhibitors are obtained at the desired temperature and solvent conditions by measuring the rate of substrate hydrolysis at increasing amounts of inhibitors. Exemplary results from three compounds (KNI-10033, KNI-10030 and KNI-10006) are shown in FIG. 7A-C, and the results obtained with all KNI compounds tested are given in Table 1.

Protein sequences, listed by entry. Tags and fused reporters are not part of them. Residues count along the entry.
UniProt P46925, 125-453 limits assumed: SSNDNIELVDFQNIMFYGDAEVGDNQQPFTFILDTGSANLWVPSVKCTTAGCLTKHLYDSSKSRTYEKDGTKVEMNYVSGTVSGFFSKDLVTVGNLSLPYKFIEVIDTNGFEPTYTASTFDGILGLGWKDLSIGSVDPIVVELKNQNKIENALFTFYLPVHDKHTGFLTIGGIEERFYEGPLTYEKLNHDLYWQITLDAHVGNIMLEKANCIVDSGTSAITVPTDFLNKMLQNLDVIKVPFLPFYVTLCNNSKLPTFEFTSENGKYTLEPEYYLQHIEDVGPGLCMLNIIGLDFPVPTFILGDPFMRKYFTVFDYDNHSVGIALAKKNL

Question: How did the Ki turn out when `C[C@@H](O)[C@H](NC(=O)COc1cccc2cnccc12)C(=O)N[C@@H](Cc1ccccc1)[C@H](O)C(=O)N1CSC(C)(C)[C@H]1C(=O)NC(C)(C)C` was run?
Answer: Its Ki is 2.62 µM.

Question: With `Cc1c(O)cccc1C(=O)N[C@@H](Cc1ccccc1)[C@H](O)C(=O)N1CSC[C@H]1C(=O)NC(C)(C)C` as the compound, how does the Ki read?
Answer: The Ki was 8.6 µM.

— patent US7560482B2, “Inhibitors of plasmepsins” (The Johns Hopkins University, priority 2001, dated 2009)
